PubChem BioAssay AID624099 – ICCB-Longwood | 2012

Aim: 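Host factors E2 relies on to silence an HPV18 LCR reporter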 (primary screen)
Cells: human C33A cervical carcinoma cells (HPV-negative) stably expressing BPV1 E2 and an HPV18 LCR luciferase reporter
Reagents: siRNA pool against human genes, 40 nM
Time to read-out: 72 h
Detection: 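Per-well luciferase luminescence, z-scored on each plate against the plate mean and SD with control wells left out, then averaged across three replicate plates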
Scale: mean z-score and z-score: higher = stronger reporter signal, weaker E2 silencing
Rule for the call: 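Hit if mean z-score reaches 2 and two or more of three replicate z-scores also reach 2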
Here is an unselected part of about 21,000 deposited reagents. 497 of them (2.4%) were called active. 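Higher z means weaker E2 silencing; only reporter increases were scored, and knock-downs that hurt cell survival may mask genuine repressor factors.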 Reagent sequences are not shown.

| gene symbol | PubChem SID | mean z-score | z-score, replicate A | z-score, replicate B | z-score, replicate C | Outcome |
| --- | --- | --- | --- | --- | --- | --- |
| RTF2 | SID134324252 | -0.18 | -0.27 | -0.28 | 0.02 | inactive |
| HTR7 | SID134311083 | 0.26 | 0.06 | 0.28 | 0.44 | inactive |
| CLK3 | SID56478875 | 0.49 | -0.25 | 1.2 | 0.53 | inactive |
| RUNX1-IT1 | SID134324880 | 1.73 | 1.91 | 1.3 | 1.98 | inactive |
| DDX59 | SID134314608 | 0.02 | -0.19 | 0.01 | 0.24 | inactive |
| CRIPT | SID134312032 | -0.29 | -0.34 | -0.23 | -0.31 | inactive |
| VASH1 | SID134324164 | 0.41 | 0.36 | 0.18 | 0.69 | inactive |
| TBCC | SID134315743 | 1.31 | 1.24 | 1.46 | 1.23 | inactive |
| CASP4 | SID134310441 | 1.48 | 1.16 | 2.01 | 1.25 | inactive |
| SIX2 | SID134320989 | -1.58 | -1.75 | -1.49 | -1.49 | inactive |
| GPR6 | SID134311025 | 0.36 | 0.32 | 0.34 | 0.42 | inactive |
| TSPAN9 | SID134316574 | -0.08 | 0.18 | -0.33 | -0.08 | inactive |
| TSPAN9 | SID134318810 | 1.06 | 0.77 | 1.29 | 1.13 | inactive |
| MIEF2 | SID134321216 | -1.16 | -0.86 | -1.37 | -1.26 | inactive |
| LOC402367 (retired record) | SID134328059 | 0.36 | 0.67 | -0.17 | 0.57 | inactive |
| VPS8 | SID134325794 | 0.02 | -0.09 | 0.23 | -0.08 | inactive |
| NCKAP5L | SID134326693 | -1.45 | -1.19 | -1.4 | -1.77 | inactive |
| NCKAP5L | SID134328357 | 1.01 | 0.6 | 1.17 | 1.27 | inactive |
| SCP2 | SID134314573 | -0.26 | -0.21 | -0.22 | -0.36 | inactive |
| ACTR3B | SID134324083 | -0.17 | -0.09 | -0.06 | -0.35 | inactive |
| KCNT2 | SID134326894 | 0.43 | 0.24 | 0.69 | 0.37 | inactive |
| ZNF219 | SID134324722 | -0.04 | 0.32 | -0.39 | -0.05 | inactive |
| NAALADL2 | SID134325786 | -1.15 | -1.04 | -1.19 | -1.23 | inactive |
| TIMMDC1 | SID134324769 | 0.66 | 1.22 | 0.58 | 0.17 | inactive |
| TLR9 | SID134310255 | 0.28 | 0.47 | 0.21 | 0.15 | inactive |
| GALNT3 | SID134316182 | -0.06 | 0.18 | -0.15 | -0.22 | inactive |
| WRNIP1 | SID134314719 | 0.89 | 0.74 | 1.08 | 0.84 | inactive |
| BUD23 | SID134314137 | 0.36 | 1.13 | -0.07 | 0.03 | inactive |
| B3GAT3 | SID134316711 | -0.38 | -0.35 | -0.39 | -0.41 | inactive |
| SDHAF2 | SID134324470 | 0.6 | 0.34 | 0.55 | 0.9 | inactive |
| MAT2A | SID134313671 | -0.75 | -0.96 | -0.7 | -0.6 | inactive |
| NXPH3 | SID134317033 | -0.54 | -0.7 | -0.55 | -0.38 | inactive |
| LOC401291 (retired record) | SID134327705 | -0.5 | -0.59 | -0.37 | -0.53 | inactive |
| TBL1XR1 | SID134317177 | -0.83 | -0.91 | -0.69 | -0.88 | inactive |
| PTPRM | SID134311733 | -0.16 | 0.04 | -0.08 | -0.44 | inactive |
| NOL8 | SID134320944 | -0.9 | -0.34 | -0.6 | -1.78 | inactive |
| AMPH | SID134315896 | 0.29 | 0.47 | 0.32 | 0.08 | inactive |
| TM6SF1 | SID134318402 | 1.18 | 1.24 | 1.35 | 0.96 | inactive |
| PXMP4 | SID134322888 | 0.42 | 0.24 | 0.8 | 0.21 | inactive |

Reformatted: results already given
MAT2A [SID134313671] | mean z-score = -0.75; z-score, replicate A = -0.96; z-score, replicate B = -0.7; z-score, replicate C = -0.6; Outcome = inactive
NXPH3 [SID134317033] | mean z-score = -0.54; z-score, replicate A = -0.7; z-score, replicate B = -0.55; z-score, replicate C = -0.38; Outcome = inactive
LOC401291 (retired record) [SID134327705] | mean z-score = -0.5; z-score, replicate A = -0.59; z-score, replicate B = -0.37; z-score, replicate C = -0.53; Outcome = inactive
TBL1XR1 [SID134317177] | mean z-score = -0.83; z-score, replicate A = -0.91; z-score, replicate B = -0.69; z-score, replicate C = -0.88; Outcome = inactive
PTPRM [SID134311733] | mean z-score = -0.16; z-score, replicate A = 0.04; z-score, replicate B = -0.08; z-score, replicate C = -0.44; Outcome = inactive
NOL8 [SID134320944] | mean z-score = -0.9; z-score, replicate A = -0.34; z-score, replicate B = -0.6; z-score, replicate C = -1.78; Outcome = inactive
AMPH [SID134315896] | mean z-score = 0.29; z-score, replicate A = 0.47; z-score, replicate B = 0.32; z-score, replicate C = 0.08; Outcome = inactive
